According to US12291651B2, “Liquid crystal-infused slippery anti-fouling surfaces” (priority 2021, dated 2025):

How the values were obtained:
[1] = Droplet sliding time on E7-infused (LC-infused) PTFE SLIPS; conditions: for bulk surfactant concentration giving average sliding time 58-62 s (~1 min): water droplets, E7-infused SLIPS; for difference in sliding time (Δt) versus PBS droplet: 100 μM SDS in PBS
[2] = Droplet sliding time on 5CB-infused PTFE SLIPS; conditions: for sliding time: PBS droplet with 100 μM SDS
[3] = Droplet sliding time on silicone oil-infused PTFE SLIPS

Row | SMILES | bulk surfactant concentration giving average sliding time 58-62 s (~1 min) ([1]; 20°) | sliding time ([1]; 100 μM SDS in water with 100 mM NaCl) | increase of sliding time versus NaCl at 0.5 mM ([1]; 100 μM SDS in water, NaCl at 100 mM) | difference in sliding time (Δt) versus PBS droplet ([1]; 40 μL droplet) | sliding time ([1]; 50 μL PBS droplet with 10 μM SDS, 4 cm, 20°) | sliding time ([1]; 50 μL PBS droplet with 100 μM SDS, 4 cm, 20° tilt, E7 nematic, ambient temperature) | difference in sliding time (Δt) versus PBS droplet ([1]; 50 μL, sliding angle 17°) | difference in sliding time (Δt) versus PBS droplet ([1]; 50 μL, sliding angle 23°) | difference in sliding time (Δt) versus PBS droplet ([1]; 60 μL droplet) | sliding time ([1]; PBS droplet with 100 μM SDS, 4 cm, 20°, E7-infused SLIPS at 70° C. (above nematic/isotropic transition)) | times slower than PBS droplets ([2]; 100 μM SDS droplet on 5CB-infused surfaces) | sliding time ([2]; 4 cm, 20°, 5CB nematic) | sliding time ([2]; 5CB-infused SLIPS at 37° C. (above nematic/isotropic transition)) | sliding time ([3]; PBS droplet with 100 μM SDS, 4 cm, 20°) | sliding time ([3]; PBS droplets with SDS, regardless of SDS concentration)
1 | CCCCCCCCCCCCOCCOCCOCCOCCO [C12E4] | 0.1 mM | – | – | – | – | – | – | – | – | – | – | – | – | – | –
2 | CCCCCCCCCCCCOS(=O)(=O)[O-].[Na+] [SDS, Sodium dodecyl sulfate] | 1 mM | ~62 s | 15 times | 37 ± 3 s | ~5 s | ~63 s | 86 ± 11 s | 7 ± 2 s | 7 ± 2 s | ~8 s | ~15 times | ~63 s | ~8 s | ~4 s | ~3 s
